For one compound, EC50 and IC50 results are on record in patent publication US10364226B2, “Pyridazinone compounds and uses thereof” (priority 2013, dated 2019).

Test [1] has as its system Influenza strain A549 A/WSN/33 (H1N1). Briefly: Influenza Antiviral Assay. The note with it: read-out: % Inhibition; A549 or MDCK cells infected with A/WSN/33 (H1N1), 20 hours; neuraminidase fluorescence readout. The test is classed as cell-based, Influenza A virus.
A further test deals with EN PA (Influenza A virus, UniProt P15659). Briefly: EN PA FRET Inhibition Assay. The class given is biochemical. The note with it: read-out: Potency; full length recombinant EN PA, FRET RNA probe cleavage.

pEC50, pIC50: −log10 of the molar value.

For `CNC(=O)c1nn(CC2(n3cc(C)c4cccnc43)CCCC2)cc(OC(=O)[C@@H](NC(=O)OC(C)(C)C)C(C)C)c1=O`, the pEC50 in test [1] is > 4.70. At EN PA, the pIC50 was > 7.00.
